The experiment has as its target partner chain of the complex shown. Kind of experiment: co-immunoprecipitation (anti-FLAG) and mass spectrometry. As to conditions: read off a plot.

Drawing on paper PMC12313075, “Legionella effector LpPIP recruits protein phosphatase 1 to the mitochondria to induce dephosphorylation of outer membrane proteins” (2025), this text covers enrichment for one molecule.

B1: unnamed (protein)
parent chain 1: MQNEKEVKELIQSDKKKRVTWNDNQNEGQIDEKFLKIGTASTPYKNKLDESIAQLMEEGYSEIEATAITGKSVTPAGMVIYNNPVFYKSKESIDIEKANRYNFFSIKNIGLGIVALAAAATVGLVVSKNS
parent chain 2: MADAASQVLLGSGLTILSQPLMYVKVLIQVGYEPLPPTIGRNIFGRQVCQLPGLFSYAQHIASIDGRRGLFTGLTPRLCSGVLGTVVHGKVLQHYQESDKGEELGPGNVQKEVSSSFDHVIKETTREMIARSAATLITHPFHVITLRSMVQFIGRESKYCGLCDSIITIYREEGILGFFAGLVPRLLGDILSLWLCNSLAYLVNTYALDSGVSTMNEMKSYSQAVTGFFASMLTYPFVLVSNLMAVNNCGLAGGCPPYSPIYTSWIDCWCMLQKEGNMSRGNSLFFRKVPFGKTYCCDLKMLI
B1 yielded an enrichment of 2.9 log2.
